Results of unrelated studies side by side (data: NIAID ChemDB).

Inhibition is in % at the dose shown (toxicity tests: loss of growth or viability). Blank or dashed fields: not listed here. Neighbouring rows are from separate reports. CCn: concentration that lowers growth or viability of the cells by n%. ICn: concentration for n% inhibition. ECn is the concentration giving n% inhibition of infection, replication or growth.

compound | dose | strain | test | protein | cell line | endpoint | agent | value
CCCCCCCCCCCCCCCCCC(=O)OC[C@@H](COP(=O)(O)OCCNCCO[C@@]1(C(=O)O)O[C@@H]([C@H](O)[C@H](O)CO)[C@H](NC(C)=O)[C@@H](O)[C@H]1F)OC(=O)CCCCCCCCCCCCCCCCC |  | H2N2 A/AICHI/2/68 | target | Sialidase |  | IC50 | Influenza A virus | 31.3 µM
CCOc1ccc(C(C)NC(=O)c2ccc3c(c2)nc(-c2ccccn2)n3C2CCCCC2)cc1OCC |  |  | target | RNA-dependent RNA polymerase |  | IC50 | Poliovirus | >25 µM
Nc1ccn(C[C@H]2COP(=O)(O)CO2)c(=O)n1 |  | Isolate V70-222 | culture |  | VERO | EC50 | Variola virus | 23 µg/mL
CC(C)(C)Oc1ccc(C[C@H](NC(=O)c2ccc3c(c2)nc(-c2ccoc2)n3C2CCCCC2)C(=O)O)cc1 |  |  | target | RNA-dependent RNA polymerase |  | IC50 | Poliovirus | >25 µM
Nc1ccn(C[C@@H](CO)OCP(=O)(O)O)c(=O)n1 |  | Isolate Hinden | culture |  | VERO | EC50 | Variola virus | 10 µg/mL
Cn1cc(NC(=O)c2cc(NC(=O)c3cc([N+](=O)[O-])cn3C)cn2C)cc1C(=O)NCCC(=N)N | 75 µg/mL | Noguchi | culture |  | BSC-1 | inhibition | Vaccinia virus | 0%
Clc1ccc2c(c1)C=C(c1ccccc1)CO2 | 10 µM | SABIN (TYPE 2) | culture |  | HEP-2 | inhibition | Poliovirus | 100%
Nc1ccn([C@@H]2O[C@H](CO)[C@@H](O)[C@@H]2O)c(=O)n1 |  |  | toxicity |  | C1271 | CC50 |  | 0.4 µM
O=C(N[C@H](C(=O)O)c1c[nH]c2ccc(O)cc12)c1ccc2c(c1)nc(-c1cnccn1)n2C1CCCCC1 |  |  | target | RNA-dependent RNA polymerase |  | IC50 | Poliovirus | >25 µM
Nc1ncnc2c1ncn2[C@@H]1C=C(CO)[C@@H](O)[C@H]1O |  | MPX | culture |  | VERO | EC50 | Monkeypox virus | 0.21 µg/mL
Clc1ccc(C2COc3ccccc3C2)cc1 |  | II (TYPE 2) | culture |  | HEP-2 | EC50 | Poliovirus | >10 µM
NC(=O)[C@H](Cc1ccc(O)cc1)NC(=O)c1ccc2c(c1)nc(-c1ccccn1)n2C1CCCCC1 |  |  | target | RNA-dependent RNA polymerase |  | IC50 | Poliovirus | >25 µM
Clc1ccc(C2=Cc3ccccc3OC2)cc1 |  | TYPE 2 | culture |  | HEP-2 | EC50 | Poliovirus | >10 µM
O=C(O)c1ccc2c(c1)nc(-c1ccsc1)n2C1CCCCC1 |  |  | target | RNA-dependent RNA polymerase |  | IC50 | Poliovirus | >25 µM
Clc1ccc(C2CCc3ccccc3O2)c(Cl)c1 | 10 µM | IA (TYPE 2) | culture |  | HEP-2 | inhibition | Poliovirus | 31%
CCCCCCCCCCCCC/C=C/[C@@H](O)[C@H](CO[C@@H]1O[C@H](CO)[C@H](O)[C@H](OS(=O)(=O)O)[C@H]1O)NC(=O)CCCCCCCCCCCCCCCCCCCCCCC | 200 µM | H2N2 A/JAPAN/305/57 | target | Sialidase |  | inhibition | Influenza A virus | 9.4%
Cc1nc2c(N)ncnc2n1[C@@H]1O[C@H](CO)[C@@H](O)[C@H]1O |  |  | toxicity |  | C1271 | CC50 |  | 5.2 µM
NC1CCC(NC(=O)c2ccc3c(c2)nc(-c2ccoc2)n3C2CCCCC2)CC1 |  |  | target | RNA-dependent RNA polymerase |  | IC50 | Poliovirus | >25 µM
Nc1nc(=O)n([C@@H]2O[C@H](CO)[C@@H](O)[C@@H]2O)cc1Cl |  |  | toxicity |  | C1271 | CC50 |  | 65 µM
CCCCCCCCCCCCCCCCCC(=O)OC[C@@H](COP(=O)(O)OCCNCCO[C@@]1(C(=O)O)O[C@@H]([C@H](O)[C@H](O)CO)[C@H](NC(C)=O)[C@@H](O)[C@H]1F)OC(=O)CCCCCCCCCCCCCCCCC |  | H10N1 A/DUCK/33/3/76 | target | Sialidase |  | IC50 | Influenza A virus | 500 µM
O=C(O)COc1cccc(C[C@H](NC(=O)c2ccc3c(c2)nc(-c2ccoc2)n3C2CCCCC2)C(=O)O)c1 |  |  | target | RNA-dependent RNA polymerase |  | IC50 | Poliovirus | >25 µM
Cn1cc(NC(=O)c2cc(NC(=O)CN=C(N)N)cn2C)c(C(=O)NCCC(=N)N)c1 | 100 µg/mL | Noguchi | culture |  | BSC-1 | inhibition | Vaccinia virus | 100%
COc1ccc(C(NC(=O)c2ccc3c(c2)nc(-c2cc4ccccc4o2)n3C2CCCCC2)C(=O)O)cc1OC |  |  | target | RNA-dependent RNA polymerase |  | IC50 | Poliovirus | >25 µM
Brc1ccc(C2=Cc3cc(Br)ccc3OC2)cc1 |  | IA (TYPE 2) | culture |  | HEP-2 | EC50 | Poliovirus | >10 µM
O=c1[nH]c(=O)n([C@@H]2O[C@H](CO)[C@@H](O)[C@@H]2F)cc1I |  |  | toxicity |  | VERO | CC50 |  | 400 µM

Repeating the final 3 entries:

| compound | dose | strain | test | protein | cell line | endpoint | agent | value |
|---|---|---|---|---|---|---|---|---|
| COc1ccc(C(NC(=O)c2ccc3c(c2)nc(-c2cc4ccccc4o2)n3C2CCCCC2)C(=O)O)cc1OC |  |  | target | RNA-dependent RNA polymerase |  | IC50 | Poliovirus | >25 µM |
| Brc1ccc(C2=Cc3cc(Br)ccc3OC2)cc1 |  | IA (TYPE 2) | culture |  | HEP-2 | EC50 | Poliovirus | >10 µM |
| O=c1[nH]c(=O)n([C@@H]2O[C@H](CO)[C@@H](O)[C@@H]2F)cc1I |  |  | toxicity |  | VERO | CC50 |  | 400 µM |